Anti-infective test results gathered from many reports (values: NIAID ChemDB through PubChem).

Common to all: whole-cell or culture tests; organism: Candida albicans; measure: MIC

Lines come from different laboratories, so protocols vary.

{"SMILES": "CC(=O)N1CCN(c2ccc(OC[C@H]3CO[C@](Cn4ccnc4)(c4ccc(Cl)cc4Cl)O3)cc2)CC1", "strain": "Isogenic isolate 13 Erg11 (4-5X) R467K", "value": "0.03 µg/mL"}
{"SMILES": "Cc1c(-c2ccccc2)c(=O)oc2ccc(-c3cc(-c4ccccc4)c4oc5ccccc5c4n3)cc12", "strain": "MTCC 227", "read by": "broth dilution / turbidity", "value": "500 µg/mL"}
{"SMILES": "Cc1c(N2CCC(N(C)C)C2)c(F)cn2c(=O)c(C(=O)O)cc(C3CC3)c12", "strain": "CCH442", "value": ">100 µg/mL"}
{"SMILES": "O=c1c(-c2ccc(O)cc2)coc2cc(OCCCNCc3ccco3)cc(O)c12", "read by": "MTT", "value": ">50 µg/mL"}
{"SMILES": "Cc1c(N2C[C@@H](N)[C@@H](C)C2)c(F)cn2c(=O)c(C(=O)O)cc(C3CC3)c12", "strain": "CCH442", "value": ">100 µg/mL"}
{"SMILES": "COc1ccc(-c2cc(-c3ccc4oc(=O)c(-c5ccccc5)c(C)c4c3)nc3c2CCc2ccccc2-3)cc1OC", "strain": "MTCC 227", "read by": "broth dilution / turbidity", "value": "1000 µg/mL"}
{"SMILES": "O=c1c(-c2ccc(O)cc2)coc2cc(OCCBr)cc(O)c12", "read by": "MTT", "value": ">50 µg/mL"}
{"SMILES": "COCOC1CCN(c2c(F)cn3c(=O)c(C(=O)O)cc(C4CC4)c3c2C)CC1", "strain": "CCH442", "value": ">100 µg/mL"}
{"SMILES": "O=c1c(-c2ccc(O)cc2)coc2cc(OCCCn3ccnc3)cc(O)c12", "read by": "MTT", "value": ">50 µg/mL"}
{"SMILES": "C=C1OC(=O)c2c(OC)cc(OC)c(C)c2OC1=C", "strain": "NCPF3153", "read by": "broth dilution / absorbance", "value": ">128 µg/mL"}
{"SMILES": "Cc1c(-c2ccccc2)c(=O)oc2ccc(-c3cc(-c4ccc(F)cc4)c4c(n3)-c3ccccc3C4)cc12", "strain": "MTCC 227", "read by": "broth dilution / turbidity", "value": "1000 µg/mL"}
{"SMILES": "C=CCc1ccc(O)c(-c2ccc(O)c(CC=C)c2)c1", "strain": "YL 360", "read by": "broth dilution", "value": "64 µg/mL"}
{"SMILES": "COc1cc(O)c2c(=O)oc(CO)c(CO)c2c1C", "strain": "NCPF3153", "read by": "broth dilution / absorbance", "value": ">128 µg/mL"}
{"SMILES": "CCN1CCN(c2nc(Cl)nc(NC3CC3)n2)CC1", "strain": "MTCC 183", "read by": "agar", "value": "100 µg/mL"}
{"SMILES": "OC(Cn1cncn1)(Cn1cncn1)c1ccc(F)cc1F", "strain": "SC5314", "read by": "resazurin", "value": "0.31 µg/mL"}
{"SMILES": "COc1ccc(-c2cc(-c3ccc4oc(=O)c(-c5ccccc5)c(C)c4c3)nc3c2CCc2ccccc2-3)cc1", "strain": "MTCC 227", "read by": "broth dilution / turbidity", "value": "250 µg/mL"}
{"SMILES": "CC(C)N1CCN(c2nc(Cl)nc(NC3CC3)n2)CC1", "strain": "MTCC 183", "read by": "agar", "value": "200 µg/mL"}
{"SMILES": "CCC(C)CC(C)CCCCCCCCC(=O)N[C@H]1C[C@@H](O)[C@H](NCCN)NC(=O)[C@@H]2[C@@H](O)CCN2C(=O)[C@H]([C@H](O)CCN)NC(=O)[C@H]([C@H](O)[C@@H](O)c2ccc(O)cc2)NC(=O)[C@@H]2C[C@@H](O)CN2C(=O)[C@H]([C@@H](C)O)NC1=O", "strain": "36S", "read by": "resazurin", "value": "20 µg/mL"}
{"SMILES": "O=c1c(-c2ccc(O)cc2)coc2cc(OCCCN3CCNCC3)cc(O)c12", "read by": "MTT", "value": ">50 µg/mL"}
{"SMILES": "Clc1cccc(N2CCN(c3nc(NCCNc4ncnc5c(Br)cc(Br)cc45)nc(NC4CC4)n3)CC2)c1Cl", "strain": "MTCC 183", "read by": "agar", "value": "50 µg/mL"}
{"SMILES": "CCCCN(CCCC)CCCOc1cc(O)c2c(=O)c(-c3ccc(O)cc3)coc2c1", "read by": "MTT", "value": ">50 µg/mL"}
{"SMILES": "Fc1ccc(N2CCN(c3nc(Cl)nc(NC4CC4)n3)CC2)cc1", "strain": "MTCC 183", "read by": "agar", "value": "100 µg/mL"}
{"SMILES": "Cc1c(N2CCC(C3(N)CC3)C2)c(F)cn2c(=O)c(C(=O)O)cc(C3CC3)c12.Cl", "strain": "CCH442", "value": "50 µg/mL"}
{"SMILES": "O=c1c(-c2ccc(O)cc2)coc2cc(OCCNCc3ccco3)cc(O)c12", "read by": "MTT", "value": ">50 µg/mL"}
{"SMILES": "C[C@H]1COc2c(N3CCC(O)C3)c(F)cn3c(=O)c(C(=O)O)cc1c23", "strain": "CCH442", "value": ">100 µg/mL"}
{"SMILES": "O=c1[nH]cnc2c1ncn2[C@H]1CC[C@@H](CO)O1", "strain": "MTCC 183", "read by": "agar", "value": "200 µg/mL"}
{"SMILES": "Cc1c(N2CC(N)C3(C2)OCCO3)c(F)cn2c(=O)c(C(=O)O)cc(C3CC3)c12.Cl", "strain": "CCH442", "value": ">100 µg/mL"}
{"SMILES": "CN1CCN(CCOc2cc(O)c3c(=O)c(-c4ccc(O)cc4)coc3c2)CC1", "read by": "MTT", "value": ">50 µg/mL"}